Reference: PubChem BioAssay AID624099 (ICCB-Longwood, 2012)

- Aim: 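Knock-downs relieving repression by E2 of an HPV18 LCR luciferase reporter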 (primary screen)
- System: human C33A cervical carcinoma cells (HPV-negative) stably expressing BPV1 E2 and an HPV18 LCR luciferase reporter
- Reagents: siRNA pool against human genes, 40 nM
- Timing: 72 h
- Read-out: 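Per-well luciferase luminescence, z-scored on each plate against the plate mean and SD with control wells left out, then averaged across three replicate plates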
- Scale: mean z-score and z-score: higher = stronger reporter signal, weaker E2 silencing
- Hit rule: 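Hit if mean z-score reaches 2 and two or more of three replicate z-scores also reach 2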
In all, the deposit lists about 21,000 reagents; this is an unselected part. 497 of them (2.4%) were called active. 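Higher z means weaker E2 silencing; only reporter increases were scored, and knock-downs that hurt cell survival may mask genuine repressor factors.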 The numbers tell different reagents against one gene apart.

no.	gene	reagent no.	mean z-score	z-score, replicate A	z-score, replicate B	z-score, replicate C	outcome
1	NAT14	1	0.67	0.56	1.22	0.22	inactive
2	ECI1	1	0.42	0.3	0.42	0.53	inactive
3	RHBDD2	1	0.54	0.72	0.84	0.06	inactive
4	LENG9	1	-0.22	-0.15	-0.41	-0.09	inactive
5	SACK1E	1	-0.97	-0.86	-1.22	-0.82	inactive
6	HSPG2	1	0.91	0.52	1.24	0.99	inactive
7	NANOGNB	1	0.53	0.5	0.37	0.71	inactive
8	GVQW3	1	0.66	0.31	0.76	0.9	inactive
9	ANKHD1	1	-1.72	-0.86	-1.32	-2.98	inactive
10	THEM6	1	0.49	0.66	0.49	0.31	inactive
11	CHPT1	1	1.67	1.13	1.82	2.07	inactive
12	LOC391809 (retired record)	1	-0.66	-0.54	-0.9	-0.54	inactive
13	ALG5	1	-0.44	-0.32	-0.46	-0.53	inactive
14	RAE1	1	2.42	2.54	2.64	2.08	active
15	SLC9A6	1	0.61	0.47	0.61	0.74	inactive
16	EMSY	1	-1.16	-1.16	-1.14	-1.16	inactive
17	PDXK	1	0.89	0.71	0.78	1.17	inactive
18	PDXK	2	0.17	-0.14	0.33	0.31	inactive
19	PDXK	3	0.16	-0.17	0.08	0.55	inactive
20	METTL21EP	1	-1.61	-1.38	-1.67	-1.78	inactive
21	MPDZ	1	0.86	0.89	0.99	0.7	inactive
22	BTLA	1	-1.7	-1.31	-2.16	-1.64	inactive
23	PPP1R1C	1	2.56	2.58	2.83	2.28	active
24	MEF2C	1	1.44	1.61	1.12	1.58	inactive
25	LOC200624 (retired record)	1	0.67	0.55	0.64	0.81	inactive
26	BABAM1	1	-0.03	-0.43	-0.01	0.36	inactive
27	EMC2	1	1.23	1.3	1.41	0.97	inactive
28	LOC390533 (retired record)	1	-0.38	-0.53	-0.34	-0.28	inactive
29	LOC729902 (retired record)	1	0.33	0.13	0.56	0.29	inactive
30	GFER	1	0.37	0.97	0.06	0.08	inactive
31	DYNC2I2	1	-1.62	-1.89	-1.64	-1.32	inactive
32	PROK1	1	0.07	-0.01	0	0.23	inactive
33	MYBPC1	1	0.4	0.31	0.61	0.28	inactive
34	NLRP11	1	0.39	0.53	0.49	0.15	inactive
35	RPL10AP3	1	-0.15	-0.13	-0.33	0.02	inactive
36	BBS12	1	-0.84	-0.74	-1.14	-0.65	inactive
37	MRPL47	1	-0.85	-0.58	-1	-0.97	inactive
38	SACK1F	1	0.84	1.39	0.71	0.43	inactive
39	LOC399961 (retired record)	1	-0.17	-0.56	0.02	0.04	inactive
40	ST6GAL2	1	0.21	0.2	0.17	0.27	inactive
41	ISCU	1	-1.4	-1.46	-1.15	-1.59	inactive
42	SSTR2	1	1.51	1.77	1.29	1.48	inactive
43	VPS41	1	0.85	0.5	1.28	0.77	inactive
44	MIR600HG	1	1.29	1.22	1.7	0.95	inactive
45	TSPY2	1	-0.12	0.24	-0.18	-0.41	inactive
46	SLC1A4	1	-0.4	-0.35	-0.44	-0.42	inactive
47	SELE	1	0.14	0.19	0.08	0.14	inactive
48	SEPTIN12	1	-1.24	-1.19	-1.3	-1.23	inactive
49	NTN1	1	0.28	0.39	0.09	0.36	inactive
50	VIP	1	-0.02	-0.21	0.41	-0.26	inactive
51	LANCL3	1	1.31	1.04	1.4	1.48	inactive
52	DEFA3	1	4.03	4.2	3.58	4.3	active
53	DDIAS	1	-0.17	0	-0.1	-0.41	inactive
54	HGSNAT	1	0.68	0.64	0.67	0.71	inactive
55	CISD1P1	1	0.16	-0.16	0.6	0.03	inactive
56	ATF1	1	0.3	-0.32	0.48	0.74	inactive
57	VAV3	1	-0.66	-0.95	-0.75	-0.28	inactive
58	ZNF541	1	1.03	0.8	1.23	1.07	inactive
59	GABARAPL1	1	-0.68	-1.01	-0.42	-0.61	inactive
60	SEMA5A	1	0.81	1.06	1	0.36	inactive
61	R3HDM1	1	0.47	0.35	0.3	0.77	inactive
62	ASNSP1	1	-1.2	-1.21	-1.07	-1.32	inactive
63	ARL4A	1	1.61	1.28	2.02	1.52	inactive
64	POLE2	1	-1.04	-1.36	-0.64	-1.13	inactive
65	ZNF230	1	-0.36	-0.28	-0.41	-0.39	inactive
66	MOBP	1	0.94	0.78	1.09	0.94	inactive
67	PDGFRA	1	0.05	-0.12	0.08	0.2	inactive
68	SH2D5	1	-1.34	-1.19	-1.57	-1.25	inactive
69	EZH2	1	0.57	0.6	0.44	0.65	inactive
70	RASGEF1C	1	-1.32	-0.84	-1.55	-1.58	inactive
71	OR2Y1	1	-1.32	-1.3	-1.54	-1.11	inactive
72	GK	1	0.05	0	0.18	-0.02	inactive
73	ODAM	1	0.2	0.23	0.25	0.11	inactive

9 of these entries, reformatted.
MPDZ
- mean z-score: 0.86
- z-score, replicate A: 0.89
- z-score, replicate B: 0.99
- z-score, replicate C: 0.7
- outcome: inactive

BTLA
- mean z-score: -1.7
- z-score, replicate A: -1.31
- z-score, replicate B: -2.16
- z-score, replicate C: -1.64
- outcome: inactive

PPP1R1C
- mean z-score: 2.56
- z-score, replicate A: 2.58
- z-score, replicate B: 2.83
- z-score, replicate C: 2.28
- outcome: active

MEF2C
- mean z-score: 1.44
- z-score, replicate A: 1.61
- z-score, replicate B: 1.12
- z-score, replicate C: 1.58
- outcome: inactive

LOC200624 (retired record)
- mean z-score: 0.67
- z-score, replicate A: 0.55
- z-score, replicate B: 0.64
- z-score, replicate C: 0.81
- outcome: inactive

BABAM1
- mean z-score: -0.03
- z-score, replicate A: -0.43
- z-score, replicate B: -0.01
- z-score, replicate C: 0.36
- outcome: inactive

EMC2
- mean z-score: 1.23
- z-score, replicate A: 1.3
- z-score, replicate B: 1.41
- z-score, replicate C: 0.97
- outcome: inactive

LOC390533 (retired record)
- mean z-score: -0.38
- z-score, replicate A: -0.53
- z-score, replicate B: -0.34
- z-score, replicate C: -0.28
- outcome: inactive

LOC729902 (retired record)
- mean z-score: 0.33
- z-score, replicate A: 0.13
- z-score, replicate B: 0.56
- z-score, replicate C: 0.29
- outcome: inactive
